## Percent effect of library compounds

Values are the deposited “Percent Effect”, in %. The controls that fix the scale are not given in the record; negative values are as filed. This is part of a subset picked to be rich in strong results. Two or more numbers in one place are separate tests of the same structure; such repeats can differ widely.

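Whole-cell growth test on Mycobacterium tuberculosis, read after 4 days in a medium based on cholesterol and the lipid DPPC; the read-out is not stated. Tested at 50 µM. The record gives no direction; compounds that gave an IC50 in retests scored well above the rest, so higher reads as more growth inhibition. Of about 69,000 compounds tested this way, about 370 (0.54%) reached 50% or more in at least one test.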

{"structure": "O=C(NCCCN1CCCCC1)c1ccc(-n2ccc3ccccc32)s1", "effect": 64.09}
{"structure": "CN(Cc1ccc(F)cc1)S(=O)(=O)N1CCOCC1", "effect": -2.496}
{"structure": "COc1ccc(-c2noc(CN3CCN(c4cnccn4)CC3)n2)cc1", "effect": 50.39}
{"structure": "Fc1cc(F)cc(CN2CCC(c3cc4ncccc4cn3)CC2)c1", "effect": 9.448}
{"structure": "CCSCCNc1cc(C)nc2c(C)c(C)nn12", "effect": "79.6 & 92.14"}
{"structure": "COc1ccsc1C(=O)NCCNc1ccccc1", "effect": 10.48}
{"structure": "[H][C@@]12C[C@@H](OC)C[C@]1([H])CN(C(=O)Cc1ccc(C)s1)C2", "effect": "33.25 & 43.65"}
{"structure": "CCNc1cc2c(nn1)CCN(C(=O)C1Cc3ccccc3O1)C2", "stereo": "stereo not drawn", "effect": -1.114}
{"structure": "CCC(C)NC(=O)c1ccn(COc2ccccc2Cl)n1", "stereo": "stereo not drawn", "effect": -3.488}
{"structure": "CSc1nccc(N2CCC3(CCCN(Cc4cccc(C)c4)C3)C2)n1", "stereo": "stereo not drawn", "effect": -6.831}
{"structure": "c1ccc(CCc2n[nH]c(C3CCC3)n2)cc1", "effect": 77.09}
{"structure": "Cc1nc2c(cc1C(=O)O)CCN(Cc1ccsc1)CC2.O=C(O)C(F)(F)F.O=C(O)C(F)(F)F", "effect": -14.33}
{"structure": "COC(=O)CN(C)Cc1cc(Br)cs1", "effect": 86.83}
{"structure": "Cc1ccc(NC(C)C(=O)NCc2cccs2)cc1C", "stereo": "stereo not drawn", "effect": 14.59}
{"structure": "O=S(=O)(CCO)Cc1ccc(OCC(F)(F)F)cc1", "effect": 7.354}
{"structure": "CN(C)C(=O)c1cc(-c2cnc(N)nc2)nc2cc(F)ccc12", "effect": 15.09}
{"structure": "O=C(NCCc1ccccc1Cl)NCC1(O)CCSC1", "stereo": "stereo not drawn", "effect": 7.611}
{"structure": "CC(C)CNC(=O)c1cc2c(s1)CCN2S(C)(=O)=O", "effect": -13.35}
{"structure": "N#CC1(C(=O)N2CCN(c3nccs3)CC2)CCCCC1", "effect": -10.92}
{"structure": "O=C(C1CCCC1)N1CCCC1c1nnc2n1CCCCC2", "stereo": "stereo not drawn", "effect": -23.14}
{"structure": "CC(C)C[C@H](N)COc1cccc(F)c1Oc1cccc(Cl)c1", "effect": 104.3}
{"structure": "CC(CO)CSc1ncnc2[nH]ncc12", "stereo": "stereo not drawn", "effect": -9.407}
{"structure": "CCOc1ccc(Cl)cc1CCNC(=O)c1ccc(=O)n(C)c1", "effect": 13.65}
{"structure": "CSc1nnc(CNC(=O)Nc2ccccc2Br)n1C", "effect": "1.159 & 7.174"}
{"structure": "Cc1ccc(N2N=C(C(=O)O)S(=O)(=O)c3cccnc32)cc1", "effect": 1.425}
{"structure": "Cc1cnn(CC2CN(Cc3nc4ccccc4s3)CCO2)c1", "stereo": "stereo not drawn", "effect": 50.53}
{"structure": "Cc1nn(C)c(C)c1CN(CCO)C(=O)C1COc2ccccc2C1", "stereo": "stereo not drawn", "effect": "77.41 & -46.01"}
{"structure": "CC(C)Oc1ccc(CNC(=O)C2CCC(=O)N2)cn1", "stereo": "stereo not drawn", "effect": -31.22}
{"structure": "Br.O=C(CN(C1=NCCCC1)c1ccccc1)c1ccc(OC(F)F)cc1", "effect": 56.27}
{"structure": "CN(CC1COc2ccccc2O1)C(=O)C1=NN(C)C(=O)CC1", "stereo": "stereo not drawn", "effect": 15.44}
{"structure": "COc1cccc(-c2cccc(N3CCC(N[C@@H]4CCOC4)CC3)c2)c1", "effect": 47.53}
{"structure": "CCN(C)Cc1nc(-c2ccccc2NS(C)(=O)=O)oc1C", "effect": 71.8}
{"structure": "c1ccc2sc(CN3CCOC(Cn4cncn4)C3)nc2c1", "stereo": "stereo not drawn", "effect": 15.05}
{"structure": "O=C(C1CC1)N1CCN(C(=O)C2CC(=O)N(c3ccccc3Br)C2)CC1", "stereo": "stereo not drawn", "effect": -23.83}
{"structure": "CCCC(C)CS(=O)(=O)NCc1cccnc1N(C)C", "stereo": "stereo not drawn", "effect": 4.063}
{"structure": "O=C(c1noc2c1CCCC2)N1CCCC(c2nccs2)C1", "stereo": "stereo not drawn", "effect": 16.88}
{"structure": "COc1ccc(CN2CC[C@@H](O)[C@@H]2Cc2cnn(C)c2)cc1.O=C(O)C(F)(F)F", "effect": "50.12 & 42.33"}
{"structure": "Br.CCOc1ccc(N(CC(=O)c2ccccc2)C2=NCCCCC2)cc1", "effect": 76.47}
{"structure": "Fc1ccc(NCc2ncc[nH]2)cc1Br", "effect": "2.256 & 6.913"}
{"structure": "COCc1noc(-c2ccc(N(C)Cc3cc(C)no3)nc2)n1", "effect": 27.02}
{"structure": "CC1(C)CCC(C(=O)N2CCCO2)c2ccccc21", "stereo": "stereo not drawn", "effect": 52.24}
{"structure": "CNS(=O)(=O)c1ccc(CNC(=O)C2CCCO2)cc1", "stereo": "stereo not drawn", "effect": -25.58}
{"structure": "O=C(C[S+]([O-])Cc1cccc(Cl)c1)NC1CCCC1", "stereo": "stereo not drawn", "effect": -0.01221}
{"structure": "O=C(NCC(=O)N1CCCCC1)c1ccoc1", "effect": -23.71}
{"structure": "Cc1cc(C)cc(OCCN2CCn3c(C)nnc3C2)c1", "effect": -26.01}
{"structure": "O=C(CC(SC1CCCCC1)C(=O)O)c1ccc(Cl)cc1", "stereo": "stereo not drawn", "effect": -0.1851}
{"structure": "CNS(=O)(=O)CCCn1nnc(-c2ccc(F)c(C)c2)n1", "effect": "37.34 & 4.073"}
{"structure": "CCN(C)C(=O)C1(c2ccc(F)cc2F)CCC1", "effect": -16.21}
{"structure": "CCc1ccc(OCCn2cccn2)cc1", "effect": -9.629}
{"structure": "CCc1nc(CN2CCCC(N(C)CCc3cccs3)C2)no1", "stereo": "stereo not drawn", "effect": -23.62}

The first 3 entries again:

For O=C(NCCCN1CCCCC1)c1ccc(-n2ccc3ccccc32)s1 the result was 64.09%.
For CN(Cc1ccc(F)cc1)S(=O)(=O)N1CCOCC1 the result was -2.496%.
For COc1ccc(-c2noc(CN3CCN(c4cnccn4)CC3)n2)cc1 the result was 50.39%.

Data taken from ChEMBL document CHEMBL3988442, “University of Dundee, Small-Polar-MMV Screening Library” (2021).